Laboratory results as given in publication PMC8765293, “Inhibitor-Resistant Mutants Give Important Insights into Candida albicans ABC Transporter Cdr1 Substrate Specificity and Help Elucidate Efflux Pump Inhibition” (Antimicrobial Agents and Chemotherapy, 2022).

Chains of the proteins cited; added tags and fusions are not shown. Lines headed by an entry give the natural chain unless they say otherwise; changes in a name come on top.
UniProt Q5ANA3: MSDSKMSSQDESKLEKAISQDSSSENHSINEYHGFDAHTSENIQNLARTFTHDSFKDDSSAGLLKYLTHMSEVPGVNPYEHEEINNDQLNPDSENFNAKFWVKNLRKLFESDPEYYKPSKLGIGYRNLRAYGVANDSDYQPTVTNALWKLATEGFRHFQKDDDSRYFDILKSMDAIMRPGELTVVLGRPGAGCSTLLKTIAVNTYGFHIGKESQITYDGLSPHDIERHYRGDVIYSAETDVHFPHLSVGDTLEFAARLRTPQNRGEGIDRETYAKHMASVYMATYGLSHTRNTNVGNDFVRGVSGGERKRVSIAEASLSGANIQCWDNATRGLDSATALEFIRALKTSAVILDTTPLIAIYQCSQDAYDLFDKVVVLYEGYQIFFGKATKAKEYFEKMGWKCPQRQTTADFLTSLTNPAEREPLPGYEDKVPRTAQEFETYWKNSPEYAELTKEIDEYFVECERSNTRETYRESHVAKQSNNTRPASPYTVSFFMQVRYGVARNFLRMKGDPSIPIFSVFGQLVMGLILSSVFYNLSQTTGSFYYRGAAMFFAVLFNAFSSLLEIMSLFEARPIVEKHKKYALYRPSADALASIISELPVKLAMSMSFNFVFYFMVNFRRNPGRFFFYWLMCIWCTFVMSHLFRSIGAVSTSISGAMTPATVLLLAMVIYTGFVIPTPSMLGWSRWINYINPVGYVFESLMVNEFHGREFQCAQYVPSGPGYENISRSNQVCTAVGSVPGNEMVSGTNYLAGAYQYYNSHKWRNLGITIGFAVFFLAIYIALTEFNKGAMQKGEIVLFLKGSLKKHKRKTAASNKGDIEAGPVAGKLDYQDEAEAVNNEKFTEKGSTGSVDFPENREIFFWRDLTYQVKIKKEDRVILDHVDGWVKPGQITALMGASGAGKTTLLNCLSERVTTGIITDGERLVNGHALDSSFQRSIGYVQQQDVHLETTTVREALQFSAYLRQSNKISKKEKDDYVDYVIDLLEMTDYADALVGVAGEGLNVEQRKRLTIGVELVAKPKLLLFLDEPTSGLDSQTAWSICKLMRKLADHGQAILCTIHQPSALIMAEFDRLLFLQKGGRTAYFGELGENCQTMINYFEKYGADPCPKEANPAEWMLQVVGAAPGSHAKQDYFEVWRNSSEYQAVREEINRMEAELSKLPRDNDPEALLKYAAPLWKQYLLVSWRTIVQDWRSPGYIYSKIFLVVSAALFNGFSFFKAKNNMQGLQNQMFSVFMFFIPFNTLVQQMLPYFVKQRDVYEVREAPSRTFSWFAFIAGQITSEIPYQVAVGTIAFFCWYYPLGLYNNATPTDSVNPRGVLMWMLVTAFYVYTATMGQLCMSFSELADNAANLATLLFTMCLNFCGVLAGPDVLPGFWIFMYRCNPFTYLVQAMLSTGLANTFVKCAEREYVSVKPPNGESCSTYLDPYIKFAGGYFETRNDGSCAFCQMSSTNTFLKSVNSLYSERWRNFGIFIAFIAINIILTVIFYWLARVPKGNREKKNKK

Molecular target: wt Cdr1 (FLC efflux of AD/CDR1 cells) (Candida albicans, UniProt Q5ANA3)
Conditions: read-out: IC50 for inhibition of FLC efflux (MICFLC), live whole cells, from Fig. 3B

For beauvericin, which IC50 is on record?
The IC50 was 310 nM.
